Source: ChEMBL document CHEMBL4680109, “A road map for prioritizing warheads for cysteine targeting covalent inhibitors” (Eur J Med Chem, 2018)

Columns and labels:
[1] = Inhibition of Escherichia coli MurA using UNAG and PEP as substrate preincubated for 30 mins in presence of UNAG followed by PEP addition and measured after 15 mins by malachite green colorimetric assay
[2] = Inhibition of Staphylococcus aureus MurA expressed in Escherichia coli using UNAG and PEP as substrate preincubated for 30 mins in presence of UNAG followed by PEP addition and measured after 15 mins by malachite green colorimetric assay

Q: What does the source list for `O=C(CBr)c1ccc([N+](=O)[O-])cc1`?
A: IC50 [1]: 5.3 µM; IC50 [2]: 4.12 µM
